PubChem BioAssay AID504761 | Drosophila RNAi Screening Center | 2011

Screen: 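Genome-wide fly cell screen for genes dengue virus requires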 (primary screen)
System: D.Mel-2 cells from Drosophila
Reagents: long dsRNA against Drosophila genes
Treatment: infection with dengue virus type 2; dose and infection time not stated
Read-out: 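Cells stained for dengue envelope protein and imaged; percent of infected cells per well on duplicate plates, ranked by infection, with stained nuclei counted for cell number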
Reading the numbers: infection score: higher = more virus-infected cells; cell count: higher = more cells in the well
Active means: 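Low infection ranks in the two replicates (chance level up to 0.065) followed by a retest with a 1.5-fold or larger significant decrease, p below 0.05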
Calls: active = confirmed: knock-down lowers infection; inactive = not picked or not confirmed
In all, the deposit lists about 22,000 reagents; shown is a random part of those that have a named target and a result. In the full data, 116 (0.52%) are marked active. 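Calls depend on retest data that are not deposited; infection was ranked per plate without normalising between plates; the unit of the infection score is not given.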 Raw values vary from plate to plate and are shown uncorrected. A plus sign joins genes that one reagent is predicted to hit. Not stated in the record: the amount of reagent, the time to read-out.

gene knocked down	DRSC id	infection score, replicate 1	infection score, replicate 2	cell count, replicate 1	cell count, replicate 2	Call
acj6 (abnormal chemosensory jump 6)	DRSC20304	4.13	1.05	5976	6861	inactive
acj6 (abnormal chemosensory jump 6)	DRSC29003	8.37	13.9	4945	5921	inactive
Nup44A (Nucleoporin at 44A)	DRSC07248	3.91	7.29	6188	6519	inactive
Nup44A (Nucleoporin at 44A)	DRSC28141	8.64	3.36	4781	6404	inactive
Uxt (Uxt prefoldin-like subunit)	DRSC01962	1.64	3.1	6647	6671	inactive
Sp7 (Serine protease 7)	DRSC15461	13	4.97	6423	6183	inactive
tHMG1 (testis-enriched HMG-box-containing protein 1)	DRSC16181	19.9	2.44	2726	862	inactive
dpr3 (defective proboscis extension response 3)	DRSC00395	4.58	10.8	6764	5956	inactive
dpr3 (defective proboscis extension response 3)	DRSC00396	5.89	6.85	5758	6375	inactive
Tm2 (Tropomyosin 2)	DRSC16887	2.54	13.4	5785	6084	inactive
Tm2 (Tropomyosin 2)	DRSC26884	4.87	12	6573	5957	inactive
Treh (Trehalase)	DRSC04548	9.77	19.4	6826	5197	inactive
Treh (Trehalase)	DRSC28721	9.41	6.44	2858	1739	inactive
bb8 (big bubble 8)	DRSC15578	4.52	8.65	6017	6679	inactive
rau	DRSC03125	3.39	4.36	6343	6558	inactive
rau	DRSC29748	3.19	5.68	6450	6694	inactive
CG31296	DRSC13092	2.65	5.87	6406	6469	inactive
CG10214	DRSC14213	3.93	5.99	6011	6225	inactive
Obp85a (Odorant-binding protein 85a)	DRSC14362	13.4	20	6814	6322	inactive
CG11593	DRSC08206	1.43	1.65	6160	5516	inactive
twf (twinfilin)	DRSC15466	6.05	11.2	6499	6403	inactive
mahe (maheshvara)	DRSC17755	0.43	26	230	6380	inactive
mahe (maheshvara)	DRSC24030	2.43	10.4	5443	5473	inactive
CG31807	DRSC01550	2.19	0.68	5991	6159	inactive
Stt3B	DRSC16781	0.49	3	6083	6296	inactive
Gr59c (Gustatory receptor 59c)	DRSC04185	7.94	19.8	2908	4720	inactive
Trxr1 (Thioredoxin reductase 1)	DRSC18668	4.53	3.74	5956	5939	inactive
Trxr1 (Thioredoxin reductase 1)	DRSC22293	4.28	12.4	5814	6016	inactive
Trxr1 (Thioredoxin reductase 1)	DRSC25749	7.5	9.21	5759	5680	inactive
CG14985	DRSC08443	2	0.91	6288	5939	inactive
eIF2A (eukaryotic translation initiation factor 2A)	DRSC11825	2.14	5.2	6387	6746	inactive
CG3149	DRSC17732	1.8	3.06	6787	7102	inactive
CG3149	DRSC27511	8.69	13.1	5837	6977	inactive
ens (ensconsin)	DRSC08454	15.6	14.7	5496	6101	inactive
ens (ensconsin)	DRSC25507	1.88	4.99	6444	5831	inactive
CG32720	DRSC17529	1.3	4.44	6367	6332	inactive
CG10081	DRSC05962	1.44	3.38	6859	6029	inactive
CG10081	DRSC24787	20.5	15.2	6629	6792	inactive
RpL22-like (Ribosomal protein L22-like)	DRSC04582	13.6	20.1	4053	5531	inactive
nompB (no mechanoreceptor potential B)	DRSC03701	12.1	2.11	5989	6479	inactive
nompB (no mechanoreceptor potential B)	DRSC03731	1.53	1.02	6734	7154	inactive
unk (unkempt)	DRSC17093	4.96	6.4	6457	6114	inactive
unk (unkempt)	DRSC28754	7.44	1.5	3454	532	inactive
CG11584	DRSC19408	10.3	5.7	6335	6416	inactive
CG11584	DRSC25623	9.71	8.51	4015	1656	inactive
CG11367	DRSC22434	1.66	0.88	6254	6397	inactive
CG13443	DRSC06403	0.82	0.45	6370	6252	inactive
halo	DRSC00705	1.39	1.4	6955	6780	inactive
halo	DRSC27447	4.66	17.6	6462	6678	inactive
ReepB (Receptor expression enhancing protein B)	DRSC07150	8.55	10.9	5917	6370	inactive
ReepB (Receptor expression enhancing protein B)	DRSC27133	2.64	13.9	5868	6217	inactive
CG9928	DRSC03274	5.73	6.04	6164	6654	inactive
CG12994	DRSC19514	3.47	2.6	6457	6343	inactive
nvy (nervy)	DRSC04705	22.3	12.4	6205	6266	inactive
CG7183	DRSC16210	19.3	25.3	5811	5983	inactive
PGRP-LD + Cralbp + Pmi	DRSC09743	0.68	7.67	6138	5865	inactive
LIMK1 (LIM domain kinase 1)	DRSC19811	1.05	3.07	6768	6423	inactive
ergic53	DRSC11389	2.26	3.57	6030	6581	inactive
Lnpk (Lunapark)	DRSC07254	4.3	8.56	6469	6355	inactive
Lnpk (Lunapark)	DRSC29127		1.51	415	398	inactive
bisc (biscotti)	DRSC04083	6.2	11	6776	5944	inactive
bisc (biscotti)	DRSC28459	12.2	15	4228	5139	inactive
Tdc2 (Tyrosine decarboxylase 2)	DRSC04999	17	2.26	6019	7003	inactive
Tdc2 (Tyrosine decarboxylase 2)	DRSC28952			359	254	inactive
park (parkin)	DRSC11618	8.34	7.93	6571	6280	inactive
Rpt3 (Regulatory particle triple-A ATPase 3)	DRSC20283	1.55	1.86	1544	1824	inactive
Rpt3 (Regulatory particle triple-A ATPase 3)	DRSC23412	1.3	1	3703	4422	inactive
CG12985	DRSC19505	4.56	17.4	6759	6161	inactive
CG12985	DRSC26985	8.72	6.75	6419	6131	inactive
Spn42Dc (Serpin 42Dc)	DRSC05010	11.1	9.24	4295	1700	inactive
CG32655	DRSC18925	2.79	6.34	6482	6418	inactive
CG13197	DRSC06322	4.95	6.69	6459	7245	inactive
CG4988	DRSC02800	12.8	21.2	5516	5371	inactive
Toll-9	DRSC11776	8.79	4.19	6088	5587	inactive

Individual results from the entries so far:
ReepB (Receptor expression enhancing protein B) [DRSC27133], cell count, replicate 2 = 6217
Gr59c (Gustatory receptor 59c) [DRSC04185], infection score, replicate 1 → 7.94
Trxr1 (Thioredoxin reductase 1) [DRSC25749], cell count, replicate 2 → 5680
For “cell count, replicate 2”, ergic53 [DRSC11389] shows 6581
unk (unkempt) [DRSC17093], infection score, replicate 2: 6.4
Tm2 (Tropomyosin 2) [DRSC16887], Call: inactive
